A mixed list of measured activities; the numbers were collected in NIAID ChemDB.

Shared fields: growth or infection tests; species: HIV-1; cell line: CEM + CEM-SS; read-out: EC50

ECn is the concentration giving n% inhibition of infection, replication or growth.

smiles	strain	mutations	read by	value
CCCc1cc(=O)oc2c3c(c4c(c12)OC(C)(C)C=C4)O[C@@H](C)[C@H](C)[C@@H]3O	IIIB			0.2 µM
CC(C)=CCOc1cc(NC(=S)c2ccoc2C)ccc1Cl	IIIB			0.01 µM
C=C1C=C(OC)C(C)(C2=NC(C)(C)CO2)c2cc(OC)c(C)cc21	RF		cytopathic effect / XTT	>81 µM
O=S(=O)(c1ccccc1)c1ccccc1	UC781-R (RT-Y181C)	RT-Y181C	cytopathic effect / XTT	>114 µM
O=S(=O)(SC1=NCCN1)c1ccccc1	RF		cytopathic effect / XTT	76.5 µM
CCCc1cc(=O)[nH]c2c3c(c4c(c12)OC(C)(C)C=C4)O[C@H](C)[C@@H](C)[C@@H]3O	RF		cytopathic effect / XTT	0.12 µM
Cc1ccc(S(=O)c2ccccc2[N+](=O)[O-])cc1	RF		cytopathic effect / XTT	7.8 µM
Cc1ccnc2c1NC(=O)c1cccnc1N2C1CC1	NL4-3	RT-L100I	cytopathic effect / XTT	0.1 µM
CC1=C(C(=O)Nc2ccc(Cl)c(C(=O)OC(C)C)c2)SCCO1	RF			0.18 µM
Cc1occc1C(=S)Nc1ccc(Cl)c(/C=N/OC(C)(C)C)c1	NL4-3 (RT V108I)	RT-V108I	cytopathic effect / XTT	0.2 µM
O=[N+]([O-])c1ccccc1S(=O)c1ccccc1	RF		cytopathic effect / XTT	6 µM
CC(C)c1cc(=O)oc2c3c(c4c(c12)OC(C)(C)C=C4)O[C@@H](C)[C@H](C)C3=O	IIIB			1 µM
Nc1cc(S(N)(=O)=O)ccc1SSc1ccc(S(N)(=O)=O)cc1N	RF		cytopathic effect / XTT	4.9 µM
CC1(C)COC(C2(C)C=CCc3ccccc32)=N1	RF		cytopathic effect / XTT	>434 µM
Cc1ccnc2c1NC(=O)c1cccnc1N2C1CC1	NL4-3 (RT Y188C)	RT-Y188C	cytopathic effect / XTT	3.2 µM
Cc1cn([C@H]2C[C@H](N=[N+]=[N-])[C@@H](CO)O2)c(=O)[nH]c1=O	Calanolide-resistant (RT T139I)	RT-T139I	cytopathic effect / XTT	0.006 µM
Cc1cc(C)c(C(=O)O)c(SSc2cc(C)cc(C)c2C(=O)O)c1	RF		cytopathic effect / XTT	46.9 µM
CC(C)=CCN1Cc2cccc3[nH]c(=S)n(c23)C[C@@H]1C	RF	RT-Y181C	cytopathic effect / XTT	>100 µM
Cc1cn([C@H]2C[C@H](N=[N+]=[N-])[C@@H](CO)O2)c(=O)[nH]c1=O	LAI		cytopathic effect / MTT	0.006 µM
Cc1cn([C@H]2C[C@H](N=[N+]=[N-])[C@@H](CO)O2)c(=O)[nH]c1=O	RF		cytopathic effect / XTT	0.0003 µM
Cc1ccnc2c1NC(=O)c1cccnc1N2C1CC1	IIIB	RT-A98G V108I	cytopathic effect / XTT	0.61 µM
CC1=CC(=O)C(C)(C2=NC(C)(C)CO2)c2ccccc21	RF		cytopathic effect / XTT	27 µM
O=[N+]([O-])c1ccccc1S(=O)(=O)c1ccccc1	MN			4.02 µM
O=C(O)c1ccc(SSc2ccc(C(=O)O)cc2)cc1	RF		cytopathic effect / XTT	123.5 µM
C/C=C/CSc1cc(NC(=S)c2ccsc2C)ccc1Cl	NL4-3 (RT V108I)	RT-V108I	cytopathic effect / XTT	0.2 µM
CC(C)c1cc(=O)oc2c3c(c4c(c12)OC(C)(C)C=C4)C[C@@H](C)[C@H](C)[C@@H]3O	IIIB			0.2 µM
O=[N+]([O-])c1ccccc1S(=O)(=O)c1ccc(Cl)cc1	RF		cytopathic effect / XTT	11 µM
Nc1ccc(S(N)(=O)=O)cc1SSc1cc(S(N)(=O)=O)ccc1N	RF		cytopathic effect / XTT	27.1 µM
CC(C)c1cc(=O)oc2c3c(c4c(c12)OC(C)(C)C=C4)C[C@H](C)[C@@H](C)[C@@H]3O	RF			0.18 µM
CC(C)(C)NC(=O)[C@@H]1CN(Cc2cccnc2)CCN1C[C@@H](O)C[C@@H](Cc1ccccc1)C(=O)N[C@H]1c2ccccc2C[C@H]1O	IIIB		p24	0.007 µM
Cc1cn([C@H]2C[C@H](N=[N+]=[N-])[C@@H](CO)O2)c(=O)[nH]c1=O	RF		cytopathic effect / XTT	0.0037 µg/mL
NNC(=O)c1ccccc1SSc1ccccc1C(=O)NN	RF		cytopathic effect / XTT	0.73 µM
Cc1cn([C@H]2C[C@H](N=[N+]=[N-])[C@@H](CO)O2)c(=O)[nH]c1=O	NL4-3	RT-L74V	cytopathic effect / XTT	0.005 µM
Nc1cc(C(=O)O)ccc1SSc1ccc(C(=O)O)cc1N	RF		cytopathic effect / XTT	68.1 µM
CN(C)C=Nc1ccn([C@H]2C[C@H](F)[C@@H](CO)O2)c(=O)n1	RF		p24	0.8 µg/mL
O=C(O)Cc1ccc(SSc2ccc(CC(=O)O)cc2)cc1	RF		cytopathic effect / XTT	23.1 µM
CCc1c(Sc2ccccn2)n(COCc2ccccc2)c(=O)[nH]c1=O	4xAZT(RT-D67N K70R T215Y K219Q)	RT-D67N K70R T215Y K219Q	cytopathic effect / XTT	0.008 µM

A second listing of 4 rows from above:

smiles | strain | mutations | read by | value
CC(C)c1cc(=O)oc2c3c(c4c(c12)OC(C)(C)C=C4)C[C@@H](C)[C@H](C)[C@@H]3O | IIIB |  |  | 0.2 µM
CCCc1cc(=O)oc2c3c(c4c(c12)OC(C)(C)C=C4)O[C@@H](C)[C@H](C)[C@@H]3O | IIIB |  |  | 0.2 µM
O=[N+]([O-])c1ccccc1S(=O)c1ccccc1 | RF |  | cytopathic effect / XTT | 6 µM
CC1(C)COC(C2(C)C=CCc3ccccc32)=N1 | RF |  | cytopathic effect / XTT | >434 µM

Rows are shuffled and stem from different studies. An empty or dashed field is not shown.